Anti-infective test results gathered from many reports (values: NIAID ChemDB through PubChem).

MIC50, MIC90 and the like: level of inhibition, or share of isolates inhibited. Percent inhibition refers to the dose given; in toxicity tests it is the harm to the cells. ECn: concentration that inhibits the pathogen or its effect by n%. ICn is the concentration giving n% inhibition. Neighbouring rows are from separate reports.

C=CCc1ccc(O)c(OC)c1 ; method: turbidity ; measure: MIC90 ; species: Candida tropicalis ; test: culture ; strain: 2557 ; result: 495 µg/mL
O=S(=O)([O-])c1ccccc1S(=O)(=O)[O-] ; method: cytopathic effect ; measure: inhibition ; species: Adenovirus ; tested at: 5 µg/mL ; test: culture ; strain: TYPE 3 ; cell line: Human embryonic lung cells ; result: 0%
CC(=O)c1cccc(-c2cncc(N3CCN(c4ccc(F)cc4F)CC3)n2)c1 ; protein: UL97 kinase ; measure: inhibition ; species: Cytomegalovirus ; tested at: 10 µM ; test: target ; result: >15%
Cc1cc(CCCOc2c(C)cc(-c3noc(C(F)(F)F)n3)cc2C)on1 ; method: cytopathic effect / visual reading ; measure: EC50 ; species: Rhinovirus ; test: culture ; strain: Isolate 41 ; cell line: OHIO HELA-I ; result: 0.05 µg/mL
CCO/N=C/c1ccc(OCCC2CCN(c3ccc(Cl)nn3)CC2)cc1 ; method: neutral red ; measure: EC50 ; species: Rhinovirus ; test: culture ; strain: 5986 (ICAM-1 receptor group 18) ; cell line: KB ; result: 0.155 µM
O=C(Nc1cc(S(=O)(=O)O)cc2cc(S(=O)(=O)O)cc(O)c12)c1ccccc1 ; method: cytopathic effect ; measure: inhibition ; species: Adenovirus ; tested at: 10 µg/mL ; test: culture ; strain: TYPE 3 ; cell line: Human amnion AV3 cells ; result: 0%
CC(=O)c1ccc(-c2cncc(N3CCN(c4ccc(F)cc4F)CC3)n2)cc1 ; protein: UL97 kinase ; measure: IC50 ; species: Cytomegalovirus ; test: target ; result: <10 µM
O=S(=O)([O-])c1ccc2c(NS(=O)(=O)c3ccccc3)cc(S(=O)(=O)[O-])cc2c1 ; method: cytopathic effect ; measure: inhibition ; species: Rhinovirus ; tested at: 5 µg/mL ; test: culture ; cell line: Human embryonic lung cells ; result: 0%
Fc1ccc(N2CCCCC2)c(NC(=S)c2ccncc2)c1 ; method: kinase activity ; protein: STK33 ; measure: inhibition ; tested at: 10 µM ; test: host protein ; result: 14%
c1ccc(N2CCN(c3cncc(-c4ccc5ccccc5c4)n3)CC2)cc1 ; protein: UL97 kinase ; measure: inhibition ; species: Cytomegalovirus ; tested at: 1 µM ; test: target ; result: <50%
CCC(CC)[C@H](NC(C)=O)[C@@H]1[C@H](O)[C@@H](C(=O)O)C[C@H]1N=C(N)N ; method: visual reading ; measure: EC50 ; species: Influenza A virus ; test: culture ; strain: H3N2 A/X-31 ; cell line: MDCK ; result: 0.01 µM
COc1ccccc1N1CCN(c2cncc(-c3ccc(N(C)C)cc3)n2)CC1 ; protein: UL97 kinase ; measure: IC50 ; species: Cytomegalovirus ; test: target ; result: <100 µM
COc1cc(-c2ccc(N=Nc3ccc4c(S(=O)(=O)O)cc(S(=O)(=O)O)c(N)c4c3O)c(OC)c2)ccc1N=Nc1ccc2c(S(=O)(=O)O)cc(S(=O)(=O)O)c(N)c2c1O ; method: cytopathic effect ; measure: inhibition ; species: Adenovirus ; tested at: 5 µg/mL ; test: culture ; strain: TYPE 3 ; cell line: Human amnion AV3 cells ; result: 0%
Fc1ccc(-c2cncc(N3CCN(c4ccc(Cl)c(Cl)c4)CC3)n2)cc1 ; protein: UL97 kinase ; measure: IC50 ; species: Cytomegalovirus ; test: target ; result: <100 µM
Nc1ccc2c(O)cc(S(=O)(=O)[O-])cc2c1S(=O)(=O)[O-] ; method: cytopathic effect ; measure: inhibition ; species: Herpes simplex virus ; tested at: 50 µg/mL ; test: culture ; cell line: Human conjunctiva cells ; result: 0%

The last 2 rows once more:

Fc1ccc(-c2cncc(N3CCN(c4ccc(Cl)c(Cl)c4)CC3)n2)cc1 ; protein: UL97 kinase ; measure: IC50 ; species: Cytomegalovirus ; test: target ; result: <100 µM
Nc1ccc2c(O)cc(S(=O)(=O)[O-])cc2c1S(=O)(=O)[O-] ; method: cytopathic effect ; measure: inhibition ; species: Herpes simplex virus ; tested at: 50 µg/mL ; test: culture ; cell line: Human conjunctiva cells ; result: 0%